In PMC5171792 (Scientific Reports, 2016) one finds SI data, which are given here for 7 compounds.

The first data set relates to A/Malaysia/Muar/33/2009 (H1N1). Description: Antiviral (virus inhibition) assay in MDCK cells, plaque reduction. Format: cell-based, H1N1 virus. The note with it: ratio CC50 / EC50.
For `COc1cc(/C=C/C(=O)O)ccc1O` [FA, Ferulic acid, reference compound], the SI was 532.
The same measure, in the same setting: to `CCOC(=O)/C=C/c1cc(OC)c(OC(C)C)c([N+](=O)[O-])c1` [MY3] belongs 43.
Still for that read-out and setting: then `CCCCOC(=O)/C=C/c1cc(OC)c(O)c([N+](=O)[O-])c1` [MY15], with 373.
With `COc1cc(C=O)cc(N=C(N)N)c1O` [MY21, guanidino vanillin], the SI was 281.
Same read-out and setting: to `COc1cc(C=O)cc(O)c1O` [MY23, 3-hydroxyvanillin] belongs 15.
The same measure, in the same setting: to `COc1cc(C=O)ccc1O` [VN, Vanillin, reference compound] belongs 109.

The data set is the same for the next values; noted with them: ratio of CC50 and EC50.
In the case of `CCC(CC)O[C@@H]1C=C(C(=O)O)C[C@H](N)[C@H]1NC(C)=O` [Oseltamivir carboxylate, reference compound], the SI is on record as 10.
